Anti-infective test results gathered from many reports (values: NIAID ChemDB through PubChem).

Common to all: growth or infection tests; agent: Mycobacterium tuberculosis

ECn is the concentration giving n% inhibition of infection, replication or growth.

SMILES | dose | endpoint | method | strain | changes | result
CCCCCCCCCCCCCCCCCCN(C)C[C@H]1O[C@H](O[C@H]2O[C@H](CN(C)CCCCCCCCCCCCCCCCCC)[C@@H](O)[C@H](O)[C@H]2O)[C@H](O)[C@@H](O)[C@@H]1O | - | MIC | - | H37Ra | - | >128 µg/mL
COCCCn1nnc2ccccc2c1=O | 12.5 µg/mL | inhibition | BACTEC | H37Rv | - | 0%
CCCCCCCCO[C@@H]1O[C@H]([C@@H](CO)O[C@H]2O[C@H](CO)[C@@H](O)[C@@H]2O)[C@H](O)[C@H]1O | - | MIC | - | H37Ra | - | >128 µg/mL
CC(C)N=c1cc2n(-c3ccc(Cl)cc3)c3ccccc3nc-2cc1Nc1ccc(Cl)cc1 | - | MIC99 | broth dilution | 9449/2007 | MDR | 2 µM
COc1ccc(CO/N=C2/CCN(c3c(F)cc4c(=O)c(C(=O)O)cn(C5CC5)c4c3OC)CC2N)cc1 | - | MIC | resazurin | H37Rv | - | 4 µg/mL
O=Cc1cccc(/C=N/NC(=O)c2ccncc2)c1 | - | MIC99 | BACTEC | katG (S315T) | - | >39.5 µM
CCOC(=O)CSc1nnc(-c2ccc([N+](=O)[O-])o2)s1 | - | MIC | - | H37Rv | - | 1.56 µg/mL
COc1c(N2CC/C(=N/OCc3ccc4c(c3)OCO4)C(N)C2)c(F)cc2c(=O)c(C(=O)O)cn(C3CC3)c12 | - | MIC | resazurin | H37Rv | - | 4 µg/mL
COC(=O)CSc1nnc(-c2ccc([N+](=O)[O-])o2)s1 | - | MIC | - | H37Rv | - | 3.13 µg/mL
NC[C@H]1O[C@H](O[C@H]2[C@H](O)[C@@H](O[C@H]3O[C@H](CO)[C@@H](O)[C@H](N)[C@H]3O)[C@H](N)C[C@@H]2N)[C@H](O)[C@@H](O)[C@@H]1O | - | MIC | - | H37Rv | - | 5 µg/mL
CC/C(C)=C(/NC(=O)[C@H](C)NC(=O)[C@@H]1CCC=NN1C(=O)[C@@H](NC(=O)[C@H](C)NC(=O)C(N)(CO)CO)[C@H](C)N)C(=O)N[C@@H](CO)C(=O)O | - | MIC | - | Capreomycin-resistant | - | 12.5 µg/mL
Cc1ccc2nc(SCC(=O)N/N=C/c3cc(Br)ccc3O)n(-c3ccccc3)c(=O)c2c1 | - | MIC | - | H37Rv | - | >6.25 µg/mL
CC(C)=CCC/C(C)=C/CC/C(C)=C/CC1(C)SC(=O)C(C)=C1O | - | MIC90 | - | H37Rv | - | 29 µM
COc1ccc(S(=O)(=O)/N=C(/C2CC3=CCC4C5CCC(=O)C5(C)CC(=O)C4C3(C)C2)N2CCCC2)cc1 | - | MIC bound | resazurin | H37Rv | - | >6.25 µg/mL
O=C1CCCC/C1=C\c1ccc(OC(=O)c2ccccc2)cc1 | 12.5 µg/mL | inhibition | - | H37Rv | - | 66%
CC1=NN(C(=O)c2ccncc2)C(=O)C1N=Nc1ccc(-c2ccc(N)cc2)cc1 | - | MIC | BACTEC | H37Rv | - | ≥12.8 µg/mL
CCCCCC(N)=NC[C@H]1O[C@H](O[C@H]2O[C@H](CN=C(N)CCCCC)[C@@H](O)[C@H](O)[C@H]2O)[C@H](O)[C@@H](O)[C@@H]1O | - | MIC | - | H37Ra | - | >128 µg/mL
COc1ccccc1CO/N=C1/CCN(c2c(F)cc3c(=O)c(C(=O)O)cn(C4CC4)c3c2OC)CC1N | - | MIC | resazurin | H37Rv | - | 8 µg/mL
Nc1cccc2c1[nH]c(=O)c1ccccc12 | 12.5 µg/mL | inhibition | BACTEC | H37Rv | - | 94%
Cc1ccc(-c2cc(CN3CCSCC3)c(C)n2-c2ccc(F)cc2)cc1 | - | MIC | - | - | - | 3 µg/mL
O=C(/C=C/c1ccc(Cl)cc1)Oc1ccc(/C=C2\CCCCC2=O)cc1 | - | EC50 | - | H37Rv | - | >12.5 µg/mL
Cn1c([N+](=O)[O-])cnc1-c1nnc(SCC(=O)OCc2ccccc2)s1 | - | MIC | - | H37Rv | - | >6.25 µg/mL
CCc1nc(NC(C(=O)O)C(C)C)c2cc(C)sc2n1 | - | EC50 | resazurin | Erdman | - | 3.2 µM
COc1cc(/C=N/NC(=O)CSc2nc3ccc(C)cc3c(=O)n2-c2ccccc2)ccc1O | - | MIC | - | H37Rv | - | >6.25 µg/mL
CCCCNc1nc(CC)nc2sc(C)cc12 | - | EC50 | resazurin | Erdman | cydA | 0.32 µM
COc1cc2c(c([N+](=O)[O-])c1)NC(=O)CC(C)S2 | 12.5 µg/mL | inhibition | BACTEC | H37Rv | - | 0%
CCCCC(CC)CNC[C@H]1O[C@H](O[C@H]2O[C@H](CO)[C@@H](O)[C@H](O)[C@H]2O)[C@H](O)[C@@H](O)[C@@H]1O | - | MIC | - | H37Ra | - | >128 µg/mL
C=CCSC(=S)Nc1nc2ccc([N+](=O)[O-])cc2s1 | - | MIC bound | BACTEC | H37Rv | - | ≤128 µg/mL
CN[C@@H]1[C@H](O[C@H]2[C@H](O[C@H]3[C@H](O)[C@@H](O)[C@H](N=C(N)N)[C@@H](O)[C@@H]3N=C(N)N)O[C@@H](C)[C@]2(O)C=O)O[C@@H](CO)[C@H](O)[C@H]1O | - | MIC99 | broth dilution | Praha 4 | MDR | >32 µM
CCCCCCCCO[C@@H]1O[C@@H](C(CO[C@@H]2O[C@@H](C(O)CO)[C@H](O)[C@H]2O)OC)[C@H](OC)[C@H]1OC | - | MIC | - | H37Ra | - | >128 µg/mL
NNC(=O)c1ccncc1 | - | MIC99 | broth dilution | Praha 131 | MDR | 16 µM
C=C/C(C)=C/[C@@]1(C)SC(=O)C(C)=C1O | - | MIC | - | Isolate M306 | - | 20–40 µg/mL
Nc1nc(SCc2ccccc2)sc1C(=O)N(Cc1ccccc1)Cc1ccccc1 | 6.25 µg/mL | inhibition | resazurin | H37Rv | - | 47%
CCCCCCCCO[C@@H]1O[C@@H](C(COCc2ccccc2)O[C@@H]2O[C@@H](C(COC(C)=O)OC(C)=O)[C@H](OC(C)=O)[C@H]2OC(C)=O)[C@H](OCc2ccccc2)[C@H]1OCc1ccccc1 | - | MIC | - | H37Ra | - | >128 µg/mL
CC[C@@H](CO)NCCN[C@@H](CC)CO | - | MIC99 | broth dilution | Praha 1 | MDR | 32 µM
COc1ccc(CO/N=C2/CCN(c3c(F)cc4c(=O)c(C(=O)O)cn(C5CC5)c4c3OC)CC2N)cc1OC | - | MIC | resazurin | H37Rv | - | 8 µg/mL
Cc1cc(C)[n+]2[nH]c(C(=O)NS(=O)(=O)c3ccccc3)nc2n1 | - | MIC | broth dilution | - | - | >32 µg/mL
COc1ccn(C2OC(COC(C)=O)C(OC(C)=O)C(OC(C)=O)C2NC(=O)OCc2ccccc2)c(=O)n1 | - | MIC bound | BACTEC | H37Rv | - | >12.5 µg/mL
NC[C@H]1OB2OCCOC3C=CC(c4cccs4)=C1C23 | - | MIC | resazurin / fluorescence | H37Rv | - | >600 µM
CN(C)CC1CCC/C(=C\c2ccc(OC(=O)/C=C/c3ccc(Cl)c(Cl)c3)cc2)C1=O | - | EC50 | - | H37Rv | - | <12.5 µg/mL
CCCCCCCCCCCCCCCCS(=O)(=O)NC[C@H]1O[C@H](O[C@H]2O[C@H](CNS(=O)(=O)CCCCCCCCCCCCCCCC)[C@@H](O)[C@H](O)[C@H]2O)[C@H](O)[C@@H](O)[C@@H]1O | - | MIC | - | H37Ra | - | >32 µg/mL
CCCCCCCCO[C@H]1OC(CO[C@H]2O[C@H](COCc3ccccc3)[C@@H](OCc3ccccc3)[C@@H]2OCc2ccccc2)[C@@H](OC)[C@@H]1OC | - | MIC | - | H37Ra | - | >128 µg/mL
CO[C@H]1/C=C/O[C@@]2(C)Oc3c(C)c(O)c4c(O)c(c(/C=N/N=C/N5CCCCC5)c(O)c4c3C2=O)NC(=O)/C(C)=C\C=C\[C@H](C)[C@H](O)[C@@H](C)[C@@H](O)[C@@H](C)[C@H](OC(C)=O)[C@@H]1C | - | MIC | - | Isolate S1 | - | 25 µg/mL
O=C1/C(=C/c2ccc(OC(=O)c3ccccc3)cc2)CCC/C1=C\c1ccc(OC(=O)c2ccccc2)cc1 | 12.5 µg/mL | inhibition | - | H37Rv | - | 0%
CCOC(=O)CSc1nnc(-c2ncc([N+](=O)[O-])n2C)s1 | - | MIC | - | H37Rv | - | 1.56 µg/mL
CC1=NN(C(=O)c2cccnc2)C(=O)C1N=Nc1ccc(S(=O)(=O)Nc2nc(C)cc(C)n2)cc1 | 12.8 µg/mL | inhibition | BACTEC | H37Rv | - | 10%
CCc1nc(NCCc2ccccc2)c2cc(C)sc2n1 | - | EC50 | resazurin | Erdman | - | 0.15 µM
CCCCCCCCO[C@@H]1O[C@H]([C@@H](COC)O[C@H]2O[C@H](CO)[C@@H](O)[C@@H]2O)[C@H](OC)[C@H]1OC | - | MIC | - | H37Ra | - | >128 µg/mL
COc1ccc(C(=O)Oc2ccc(/C=C3\CCCC(CN(C)C)C3=O)cc2)cc1 | - | EC50 | - | H37Rv | - | <12.5 µg/mL
CCCCCCCCO[C@H]1OC(CO[C@H]2O[C@H](CO)[C@@H](O)[C@@H]2OCc2ccccc2)[C@@H](OCc2ccccc2)[C@@H]1OCc1ccccc1 | - | MIC | - | H37Ra | - | >128 µg/mL
CC(=O)C(N=NC1CCC(S(=O)(=O)NB2N=CS2)CC1)C(=O)Nc1ccccc1C | - | MIC | BACTEC | H37Rv | - | ≥12.5 µg/mL
CCCOC(=O)CSc1nnc(-c2ccc([N+](=O)[O-])o2)s1 | - | MIC | - | H37Rv | - | >6.25 µg/mL
Nc1nc(=O)n(CC(O)CO)s1 | 12.5 µg/mL | inhibition | BACTEC | H37Rv | - | 9%
CC[C@@H](CO)NCCN[C@@H](CC)CO | - | MIC | - | - | - | 16 µg/mL
CCOc1ccc(N=c2ssc(SC)c2-c2ccccc2)cc1 | 12.5 µg/mL | inhibition | BACTEC | H37Rv | - | 42%
CC1=C(O)C(C)(CCC(C)C)SC1=O | - | MIC90 | - | H37Rv | - | >300 µM
COc1ccc(/C=C/c2cc(O)cc(O[C@@H]3O[C@H](CO)[C@@H](O)[C@H](O)[C@H]3O)c2)cc1O | 12.8 µg/mL | inhibition | BACTEC | H37Rv | - | -9%
CCc1nc(NCCCc2ccccc2)c2cc(C)sc2n1 | - | EC50 | resazurin | Erdman | qcrCAB A178T | >0.5 µM
Cc1cc(N=NC(N)=S)c2ccccc2c1O | - | MIC bound | BACTEC | H37Rv | - | >12.5 µg/mL
CN[C@@H]1[C@@H](O)[C@@H](O[C@@H]2[C@@H](O)[C@H](O[C@H]3O[C@H](CN)CC[C@H]3N)[C@@H](N)C[C@H]2N)OC[C@]1(C)O | - | MIC99 | broth dilution | 9449/2007 | MDR | 2 µM
CCCc1cc(=O)oc2c3c(c4c(c12)OC(C)(C)C=C4)O[C@H](C)[C@@H](C)[C@@H]3O | - | MIC | BACTEC | H37Rv | - | 6.25 µg/mL
CO[C@H]1/C=C/O[C@@]2(C)Oc3c(C)c(O)c4c(O)c(c(/C=N/N5CCN(C)CC5)c(O)c4c3C2=O)NC(=O)/C(C)=C\C=C\[C@H](C)[C@H](O)[C@@H](C)[C@@H](O)[C@@H](C)[C@H](OC(C)=O)[C@@H]1C | - | MIC99 | broth dilution | 9449/2007 | MDR | >8 µM
CO[C@H](C)[C@@H](NC(=O)[C@@H]1CCCN1C)[C@@H]1O[C@@H](SCCOC(=O)c2ccccc2O)[C@@H](O)[C@H](O)[C@H]1O | - | MIC bound | BACTEC | H37Rv | - | >128 µg/mL
CN(C)CC1CCC/C(=C\c2ccc(OC(=O)/C=C/c3ccc(Br)cc3)cc2)C1=O | 12.5 µg/mL | inhibition | - | H37Rv | - | 99%
O=C(NO)c1cccnc1 | - | MIC | BACTEC | H37Rv | - | ≥12.5 µg/mL
Cc1ccc2nc(SCC(=O)N/N=C/c3ccccc3O)n(-c3ccccc3)c(=O)c2c1 | - | MIC | - | H37Rv | - | >6.25 µg/mL
Oc1ccccc1-c1nnc2sc3c(Cl)c4nn5c(-c6ccccc6O)nnc5sc4c(Cl)c3nn12 | 12.5 µg/mL | inhibition | BACTEC | H37Rv | - | 49%
CO[C@H]1/C=C/O[C@@]2(C)Oc3c(C)c(O)c4c(O)c(c5c(c4c3C2=O)NC2(CCN(CC(C)C)CC2)N=5)=NC(=O)/C(C)=C\C=C\[C@H](C)[C@H](O)[C@@H](C)[C@@H](O)[C@@H](C)[C@H](OC(C)=O)[C@@H]1C | - | MIC | - | Strain 65 66 | - | 0.03 µg/mL
Nc1c(C(=O)Nc2ccc3c(c2)C(=O)c2ccccc2C3=O)ccc2c1C(=O)c1ccccc1C2=O | 12.5 µg/mL | inhibition | BACTEC | H37Rv | - | 3%
N[C@@H]1CN(c2c(F)cc3c(=O)c(C(=O)O)cn([C@@H]4C[C@@H]4F)c3c2Cl)CC12CC2 | - | MIC | - | - | - | >0.03 µg/mL
Cc1c2oc3c(C)ccc(C(=O)NCCc4ccccn4)c3nc-2c(C(=O)NCCc2ccccn2)c(N)c1=O | 12.5 µg/mL | inhibition | BACTEC | H37Rv | - | -31%
CCCCCCCCO[C@@H]1O[C@H]([C@@H](COCc2ccccc2)O[C@H]2O[C@H](CO)[C@@H](O)[C@@H]2O)[C@H](OCc2ccccc2)[C@H]1OCc1ccccc1 | - | MIC | - | H37Ra | - | 32 µg/mL

The last 4 rows once more:

SMILES | dose | endpoint | method | strain | changes | result
Nc1c(C(=O)Nc2ccc3c(c2)C(=O)c2ccccc2C3=O)ccc2c1C(=O)c1ccccc1C2=O | 12.5 µg/mL | inhibition | BACTEC | H37Rv | - | 3%
N[C@@H]1CN(c2c(F)cc3c(=O)c(C(=O)O)cn([C@@H]4C[C@@H]4F)c3c2Cl)CC12CC2 | - | MIC | - | - | - | >0.03 µg/mL
Cc1c2oc3c(C)ccc(C(=O)NCCc4ccccn4)c3nc-2c(C(=O)NCCc2ccccn2)c(N)c1=O | 12.5 µg/mL | inhibition | BACTEC | H37Rv | - | -31%
CCCCCCCCO[C@@H]1O[C@H]([C@@H](COCc2ccccc2)O[C@H]2O[C@H](CO)[C@@H](O)[C@@H]2O)[C@H](OCc2ccccc2)[C@H]1OCc1ccccc1 | - | MIC | - | H37Ra | - | 32 µg/mL

A number after MIC or MFC names an inhibition level or a share of isolates. MIC bound comes from a single tested concentration. Inhibition is in % at the dose shown (toxicity tests: loss of growth or viability). Blank or dashed fields: not listed here. a–b is a range or a potency band. Neighbouring rows are from separate reports.